Measured values from several laboratories, pooled; numbers as filed in NIAID ChemDB.

All rows: tests in culture; species: Candida albicans

An empty or dashed field is not shown. MIC50, MIC90 and the like: level of inhibition, or share of isolates inhibited. Lines come from different laboratories, so protocols vary.

compound,endpoint,strain or isolate,read by,value
CSCC(N)C(=O)N[C@H]1[C@@H](O)[C@H](n2cnc3c(N)ncnc32)O[C@@H]1C(=O)O,MIC,FP633,-,0.2 µg/mL
O=C(c1ccc(Cl)cc1)C(O)(Cn1ccnc1)c1ccc(Cl)cc1,MIC,KE-2,-,100 µg/mL
CCn1nc(C)cc1-c1cc(C)on1,MIC,-,-,>200 µM
COC(=O)/C=C/c1ccc(OC)cc1,MIC,-,broth dilution / resazurin,500 µg/mL
Cc1ncc([N+](=O)[O-])n1CCn1c(-c2ccc(CO)cc2)csc1=Nc1ccccc1,MIC,-,-,250 µg/mL
CCCn1nc(-c2cc(C)on2)c(N=O)c1C,MIC,-,-,22 µM
CCC(C)n1ncn(-c2ccc(N3CCN(c4ccc(OC[C@H]5CO[C@](Cn6cncn6)(c6ccc(Cl)cc6Cl)O5)cc4)CC3)cc2)c1=O,Geometric mean MIC,10 strains (fluconazole-resistant),-,0.71 µg/mL
N=C(N)c1ccc2nc(-c3ccc(-c4nc5ccc(C(=N)N)cc5[nH]4)[nH]3)[nH]c2c1,MFC,A39,-,0.78 µg/mL
NC(=O)N/N=C/c1ccsc1.NC(=O)N/N=C/c1ccsc1.[Cl][Ni][Cl],MIC80,ATCC 66396,turbidity / absorbance,250 µg/mL
O=C1CSC2(CCc3ccccc32)N1n1c(COc2ccc(Cl)cc2)n[nH]c1=S,MIC100,-,-,12.5 µg/mL
Cc1ncc([N+](=O)[O-])n1CCN1C(=O)/C(=C/c2ccc(Cl)c(Cl)c2)N=C1c1ccccc1,MIC,-,-,250 µg/mL
Cc1c(CN(C)C)cc(-c2ccccc2)n1-c1ccc(Cl)cc1Cl,Mean MIC,20 strains,-,16.3 µg/mL
Nc1ncnc2c1ncn2[C@@H]1O[C@H](C(=O)O)[C@@H](NC(=O)CCc2ccccc2)[C@H]1O,MIC,FP633,-,>100 µg/mL
CCCCCCCCCCCCCC[C@H](N)C(=O)N[C@H](C(=O)O)C1O[C@@H](n2ccc(=O)[nH]c2=O)[C@H](O)[C@@H]1O,MIC,H317,-,>320 µg/mL
Cc1ccc(-c2csc(=Nc3ccccc3)n2CCn2c([N+](=O)[O-])cnc2C)cc1,MIC,-,-,250 µg/mL
Cc1cc(CN2CCN(C)CC2)c(C)n1-c1ccc(Cl)cc1,Mean MIC,20 strains,-,200 µg/mL
C=C1CO[C@H]2[C@@H](C)OC(OC[C@@]34C[C@H]5[C@H](C)CC[C@@H]5[C@@]5(C=O)C[C@@H]3C=C(C(C)C)[C@@]45C(=O)O)C[C@@H]12,MIC90,66 strains (fluconazole-susceptible),-,0.06 µg/mL
Clc1ccc(COC(Cn2ccnc2)c2ccc3ccccc3c2)c(Cl)c1,MIC90,-,-,86 µg/mL
CS(=O)(=O)c1nnc(-c2ccccc2[N+](=O)[O-])s1,MIC,ATCC 10231,-,25 µg/mL
CN(Cc1cccc2ccsc12)/N=C\C#CC(C)(C)C,MIC,-,-,>64 µg/mL
Nc1ncnc2c1ncn2[C@@H]1O[C@H](C(=O)NCCP(=O)(O)O)[C@@H](NC(=O)[C@H](N)CSCc2ccccc2)[C@H]1O,MIC,FP633,-,25 µg/mL
Cc1ccc(-c2ccc(Cl)cc2)n1-c1ccc(Cl)cc1Cl,Mean MIC,20 strains,-,>200 µg/mL
Clc1ccc(COC(Cn2ccnc2)c2cccc3ccccc23)c(Cl)c1,MIC90,-,-,>100 µg/mL
CCCC[C@](O)(c1ccc(F)cc1)[C@](O)(Cn1cncn1)c1ccccc1Cl,MIC,KE-2,-,>100 µg/mL
CCS(=O)(=O)c1nnc(-c2cccc([N+](=O)[O-])c2)s1,MIC,ATCC 10231,-,6.25 µg/mL
CNc1ncnc2c1ncn2[C@@H]1O[C@H](C(=O)O)[C@@H](NC(=O)[C@@H](N)Cc2ccc(OC)cc2)[C@H]1O,MIC,FP633,-,>100 µg/mL
Cc1cc(-c2c(N=O)c(C)nn2C)no1,MIC,-,-,25 µM
N=c1oc2ccccc2c2csc(N)c12,MIC,ATCC 2091,broth dilution,128 µg/mL
Cc1ncc([N+](=O)[O-])n1CCN1C(=O)S/C(=C\c2ccccc2)C1=O,MIC,-,-,125 µg/mL
Cc1c(C(=O)N(C)C)cc(-c2ccc(Cl)cc2)n1-c1ccc(Cl)cc1,Mean MIC,20 strains,-,>200 µg/mL
CN(Cc1cccc2ccccc12)/N=C\c1ccc(C(C)(C)c2ccccc2)cc1,MIC,-,-,>64 µg/mL
O=C1CSC2(CCc3ccccc32)N1n1c(COc2ccc(Cl)cc2Cl)n[nH]c1=S,MIC100,-,-,12.5 µg/mL
Cc1ccccc1/C=N\N(C)Cc1cccc2ccccc12,MIC,-,-,>64 µg/mL
Cc1c(CNc2ccccc2)cc(-c2ccc(Cl)cc2)n1-c1ccc(Cl)cc1Cl,Mean MIC,20 strains,-,>200 µg/mL
Cc1ccc(/C=C2/SC(=O)N(CCn3c([N+](=O)[O-])cnc3C)C2=O)cc1,MIC,-,-,125 µg/mL
Cc1c(CN2CCCC2)cc(-c2ccc(Cl)cc2)n1-c1ccccc1,Mean MIC,20 strains,-,61.7 µg/mL
CC[C@](O)(c1ccc(F)cc1)[C@](O)(Cn1cncn1)c1ccc(Cl)cc1,MIC,KE-2,-,>100 µg/mL
CN(Cc1cccc2ccccc12)/N=C\c1ccc(C(C)(C)C)cc1,MIC,-,-,>64 µg/mL
CCCS(=O)(=O)c1nnc(Cc2cc([N+](=O)[O-])ccc2-c2ncc[nH]2)s1,MIC,ATCC 10231,-,6.25 µg/mL
O=C1CSC2(CCc3ccccc32)N1n1c(-c2ccc([N+](=O)[O-])cc2)n[nH]c1=S,MIC100,-,-,25 µg/mL
COc1ccc(C[C@H](NC(=O)CN)C(=O)N[C@H]2[C@@H](O)[C@H](n3cnc4c(N)ncnc43)O[C@@H]2C(=O)O)cc1,MIC,FP633,-,>100 µg/mL
CN(Cc1cccc2ccsc12)/N=C\c1ccc2ccccc2c1,MIC,-,-,>64 µg/mL
C[C@@H](N1CCN(c2ccc(-n3cnnn3)cc2)C1=O)[C@@](O)(Cn1cncn1)c1ccc(F)cc1F,MIC,IFO 0583,-,2 µg/mL
Cc1ncc([N+](=O)[O-])n1CCNC(=S)Nc1ccc(Cl)cc1,MIC,-,-,250 µg/mL
Cc1ccc(C(C)C)cc1O,MIC50,-,-,64 µg/mL
CCCCn1nc(C)c(N=O)c1-c1cc(C)on1,MIC,-,-,22 µM
CN(Cc1cccc2ccsc12)/N=C\C=C\c1ccccc1,MIC,-,-,>64 µg/mL
CCSc1nnc(-c2ccc([N+](=O)[O-])cc2)s1,MIC,ATCC 10231,-,>100 µg/mL
Nc1ncnc2c1ncn2[C@@H]1O[C@H](C(=O)O)[C@@H](NC(=O)[C@H](N)CSC/C(Cl)=C/Cl)[C@H]1O,MIC,FP633,-,50 µg/mL
CN(Cc1cccc2ccsc12)/N=C\c1ccccc1,MIC,-,-,>64 µg/mL
Clc1ccc(COC(Cn2cncn2)c2cc3ccccc3o2)c(Cl)c1,MIC90,-,-,>100 µg/mL
C[C@H]1[C@H](O)[C@@H](C)/C=C/C=C/C=C/C=C/C=C/C=C/C=C/[C@H](O[C@@H]2O[C@H](C)[C@@H](O)[C@H](N)[C@@H]2O)C[C@@H]2O[C@](O)(C[C@@H](O)C[C@@H](O)CC[C@H](O)[C@@H](O)C[C@@H](O)CC(=O)O[C@H]1C)C[C@H](O)[C@H]2C(=O)O,Geometric mean MIC,8 strains,-,1 µg/mL
CC(N1CCN(c2ccc(-n3cnnn3)cc2)C1=O)[C@@](O)(Cn1cncn1)c1ccc(F)cc1F,MIC,TA,-,>16 µg/mL
CC(C)[C@@](C)(O)[C@](O)(Cn1cncn1)c1ccc(Cl)cc1Cl,MIC,KE-2,-,>100 µg/mL
CCSc1nnc(-c2cc([N+](=O)[O-])ccc2-c2ccco2)s1,MIC,ATCC 10231,-,>100 µg/mL
C[C@](O)(c1ccc(Cl)cc1)[C@](O)(Cn1cncn1)c1ccc(Cl)cc1,MIC,KE-2,-,100 µg/mL
CS(=O)(=O)c1nnc(Cc2cc([N+](=O)[O-])ccc2-c2ncc[nH]2)s1,MIC,ATCC 10231,-,1.56 µg/mL
Nc1ncnc2c1ncn2[C@@H]1O[C@H](C(=O)O)[C@@H](NC(=O)C(N)CSCc2ccc3c(c2)OCO3)[C@H]1O,MIC,FP633,-,0.2 µg/mL
COc1ccc(C(Cn2ccnc2)OCc2ccc(Cl)cc2Cl)cc1OC,MIC90,-,-,>100 µg/mL
Cc1ccccc1OCc1n[nH]c(=S)n1N1C(=O)CSC12CCc1ccccc12,MIC100,-,-,6.25 µg/mL
Nc1ncnc2c1ncn2[C@@H]1O[C@H](C(=O)O)[C@@H](NC(=O)C(N)CSCc2cccnc2)[C@H]1O,MIC,FP633,-,0.8 µg/mL
Cc1ccc(-c2ccc(Cl)cc2)n1-c1ccc([N+](=O)[O-])cc1,Mean MIC,20 strains,-,>200 µg/mL
Clc1ccc(COC(Cn2cncn2)c2ccc3c(c2)OCO3)c(Cl)c1,MIC90,-,-,>100 µg/mL
CN(Cc1cccc2ccsc12)/N=C\c1ccc(C(C)(C)c2ccccc2)cc1,MIC,-,-,>64 µg/mL
Clc1ccc(COC(Cn2ccnc2)c2ccc3c(c2)OCO3)c(Cl)c1,MIC90,-,-,>100 µg/mL
O[C@@H](c1ccc(Cl)cc1)[C@](O)(Cn1cncn1)c1ccc(Cl)cc1,MIC,KE-2,-,50 µg/mL
COc1ccc(COC(Cn2ccnc2)c2ccc(Cl)cc2Cl)cc1OC,MIC90,-,-,59 µg/mL
O=C(c1ccccc1Cl)C(O)(Cn1ccnc1)c1ccccc1Cl,MIC,KE-2,-,100 µg/mL
Cc1c(Cn2ccnc2)cc(-c2ccccc2)n1-c1ccc(Cl)cc1,Mean MIC,20 strains,-,84.1 µg/mL

For reference, 8 entries again:

compound	endpoint	strain or isolate	read by	value
CC(N1CCN(c2ccc(-n3cnnn3)cc2)C1=O)[C@@](O)(Cn1cncn1)c1ccc(F)cc1F	MIC	TA	-	>16 µg/mL
C[C@H]1[C@H](O)[C@@H](C)/C=C/C=C/C=C/C=C/C=C/C=C/C=C/[C@H](O[C@@H]2O[C@H](C)[C@@H](O)[C@H](N)[C@@H]2O)C[C@@H]2O[C@](O)(C[C@@H](O)C[C@@H](O)CC[C@H](O)[C@@H](O)C[C@@H](O)CC(=O)O[C@H]1C)C[C@H](O)[C@H]2C(=O)O	Geometric mean MIC	8 strains	-	1 µg/mL
Nc1ncnc2c1ncn2[C@@H]1O[C@H](C(=O)O)[C@@H](NC(=O)[C@H](N)CSC/C(Cl)=C/Cl)[C@H]1O	MIC	FP633	-	50 µg/mL
Cc1c(C(=O)N(C)C)cc(-c2ccc(Cl)cc2)n1-c1ccc(Cl)cc1	Mean MIC	20 strains	-	>200 µg/mL
Clc1ccc(COC(Cn2cncn2)c2cc3ccccc3o2)c(Cl)c1	MIC90	-	-	>100 µg/mL
Cc1ccc(-c2csc(=Nc3ccccc3)n2CCn2c([N+](=O)[O-])cnc2C)cc1	MIC	-	-	250 µg/mL
O=C1CSC2(CCc3ccccc32)N1n1c(COc2ccc(Cl)cc2)n[nH]c1=S	MIC100	-	-	12.5 µg/mL
CN(Cc1cccc2ccccc12)/N=C\c1ccc(C(C)(C)c2ccccc2)cc1	MIC	-	-	>64 µg/mL